Test results: patent publication US11767303B2, “Compounds and methods for inhibiting viral replication and methods of treating and preventing flaviviral infections” (priority 2020, dated 2023)

Protein sequences, listed by entry. Tags and fused reporters are not part of them. Residues count along the entry.
UniProt P29990, 1476-1654 limits assumed: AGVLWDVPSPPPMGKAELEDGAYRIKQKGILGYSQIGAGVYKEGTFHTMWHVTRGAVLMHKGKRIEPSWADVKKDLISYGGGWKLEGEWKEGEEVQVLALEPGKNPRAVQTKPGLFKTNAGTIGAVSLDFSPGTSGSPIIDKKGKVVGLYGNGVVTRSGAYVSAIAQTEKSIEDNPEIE

Tests used:
DENV2 = experiment: Viral titer (plaque) reduction assay, DENV2 in A549 cells; assay type: cell-based, Dengue virus serotype 2; conditions: read-out: EC50-DN2, Table 4, preliminary SAR
LogP = assay type: physicochemical
ZIKV = experiment: Viral titer reduction assay, ZIKV in A549 cells; assay type: cell-based, Zika virus; conditions: read-out: EC50-ZK, Table 4, preliminary SAR
Aqueous solubility = assay type: physicochemical
DENV2 NS2B-NS3 protease = DENV2 NS2B-NS3 protease (Dengue virus type 2, UniProt P29990); experiment: Protease inhibition assay (FRET peptide substrate); assay type: biochemical, Dengue virus serotype 2; conditions: read-out: IC50-pro(DN2); Table 4, preliminary SAR

`CN1CCC(Oc2ccc(Cl)cc2C(=O)Nc2ccc3c(c2)S(=O)(=O)C=C3)CC1` showed an EC50 (DENV2) of 0.8 µM, a LogP (LogP) of 2.62 and an EC50 (ZIKV) of 2 µM. For the same compound, the aqueous solubility (Aqueous solubility) was “significantly improves the aqueous solubility” and the IC50 (DENV2 NS2B-NS3 protease) was 26 µM.
